{"source": "ChEMBL document CHEMBL3817799", "about": "“N-Nitrosulfonamides: A new chemotype for carbonic anhydrase inhibition” (Bioorg Med Chem, 2016)"}
{"assay": "Inhibition of Malassezia globosa beta carbonic anhydrase preincubated for 15 mins prior to testing by stopped flow CO2 hydrase assay", "units": {"Ki": "nM"}}
{"smiles": "Nc1cc(S(=O)(=O)N[N+](=O)[O-])cc([N+](=O)[O-])c1O", "Ki": 670}
{"smiles": "Nc1ccc(S(=O)(=O)N[N+](=O)[O-])cc1", "Ki": 710}
{"smiles": "Nc1ccccc1S(=O)(=O)N[N+](=O)[O-]", "Ki": 660}
